Target: T1, DNA polymerase III α subunit, full-length (E. coli, UniProt P10443 1-1160, in the FRET assay only: labeled with Alexa Fluor 647 C2-maleimide)
T1 construct: α polymerase subunit of DNA polymerase III, E. coli, full-length; Unlabelled in the tryptophan fluorescence titration; also called pol III α; full-length α; source: purified; as previously described [21]
T1 sequence (looked up): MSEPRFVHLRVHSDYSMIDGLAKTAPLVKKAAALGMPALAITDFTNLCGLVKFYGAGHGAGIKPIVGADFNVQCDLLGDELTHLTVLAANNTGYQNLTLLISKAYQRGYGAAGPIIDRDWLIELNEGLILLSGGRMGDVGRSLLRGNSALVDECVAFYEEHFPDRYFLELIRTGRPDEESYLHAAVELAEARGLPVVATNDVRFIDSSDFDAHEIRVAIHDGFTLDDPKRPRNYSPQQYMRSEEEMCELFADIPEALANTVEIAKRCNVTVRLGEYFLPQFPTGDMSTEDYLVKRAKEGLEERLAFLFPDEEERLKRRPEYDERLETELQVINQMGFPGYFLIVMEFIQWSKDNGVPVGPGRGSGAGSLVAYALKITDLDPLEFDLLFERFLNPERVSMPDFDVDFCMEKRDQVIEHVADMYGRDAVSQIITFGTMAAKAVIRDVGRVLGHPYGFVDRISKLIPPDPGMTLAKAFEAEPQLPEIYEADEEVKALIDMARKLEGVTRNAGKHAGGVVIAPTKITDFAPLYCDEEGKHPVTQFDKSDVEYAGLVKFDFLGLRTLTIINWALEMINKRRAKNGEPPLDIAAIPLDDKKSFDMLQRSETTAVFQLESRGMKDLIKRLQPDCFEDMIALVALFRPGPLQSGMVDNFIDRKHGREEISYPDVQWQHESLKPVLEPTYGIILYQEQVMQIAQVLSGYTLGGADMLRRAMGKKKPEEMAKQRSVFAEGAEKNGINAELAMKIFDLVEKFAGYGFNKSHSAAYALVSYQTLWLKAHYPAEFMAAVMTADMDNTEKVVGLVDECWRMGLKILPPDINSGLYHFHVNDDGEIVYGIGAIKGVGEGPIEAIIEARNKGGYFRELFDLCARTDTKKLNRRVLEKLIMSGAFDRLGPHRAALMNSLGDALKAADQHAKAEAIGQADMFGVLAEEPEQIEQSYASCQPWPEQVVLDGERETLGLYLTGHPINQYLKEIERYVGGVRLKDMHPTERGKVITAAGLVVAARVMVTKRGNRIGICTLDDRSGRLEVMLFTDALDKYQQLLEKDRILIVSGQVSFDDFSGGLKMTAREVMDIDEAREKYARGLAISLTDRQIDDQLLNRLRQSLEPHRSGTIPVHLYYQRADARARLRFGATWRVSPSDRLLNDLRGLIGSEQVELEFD
Experiment: FRET or BRET; α labeled with Alexa Fluor 647 C2-maleimide (acceptor) and β labeled with Alexa Fluor 488 C5-maleimide (donor); purified UmuD variants added to 40 μM
Conditions: both partners purified

B1: β processivity clamp of DNA polymerase III (natural protein, E. coli, UniProt P0A988 1-366, looked up)
chain: MKFTVEREHLLKPLQQVSGPLGGRPTLPILGNLLLQVADGTLSLTGTDLEMEMVARVALVQPHEPGATTVPARKFFDICRGLPEGAEIAVQLEGERMLVRSGRSRFSLSTLPAADFPNLDDWQSEVEFTLPQATMKRLIEATQFSMAHQDVRYYLNGMLFETEGEELRTVATDGHRLAVCSMPIGQSLPSHSVIVPRKGVIELMRMLDGGDNPLRVQIGSNNIRAHVGDFIFTSKLVDGRFPDYRRVLPKNPDKHLEAGCDLLKQAFARAAILSNEKFRGVRLYVSENQLKITANNPEQEEAEEILDVTYSGAEMEIGFNVSYVLDVLNALKCENVRMMLTDSVSSVQIEDAASQSAAYVVMPMRL
modifications: labeled with Alexa Fluor 488 C5-maleimide
notes: β processivity subunit of DNA polymerase III, E. coli; also called β clamp; beta processivity clamp; source: purified; as previously described [21]
  binding result: binds

Source: paper PMC5342242, “Altering the N-terminal arms of the polymerase manager protein UmuD modulates protein interactions” (PLoS ONE, 2017)
